Measured values from patent publication US9919060B2 (University Court of the University of Dundee, priority 2009, dated 2018).

Tests used:
CHO/CYP1A1 cells = experiment: Cytotoxicity (MTS assay) in CHO/CYP1A1 cells; type: cell-based, Chinese Hamster; details: IC50 in normal CHO cells divided by IC50 in CYP1A1 transfected CHO cells
CHO/CYP1B1 cells = experiment: Cytotoxicity (MTS assay) in CHO/CYP1B1 cells; type: cell-based, Chinese Hamster; details: IC50 in normal CHO cells divided by IC50 in CYP1B1 transfected CHO cells

In the case of `NP(N)(=O)N(CCCl)CCCl`, the “IC50 ratio 72 h (CHO / CHO/CYP1A1)” value (CHO/CYP1A1 cells) is reported as 1.2 and the “IC50 ratio 72 h (CHO / CHO/CYP1B1)” value (CHO/CYP1B1 cells) is reported as under 1.
With `O=P(O)(NCCBr)NCCBr` the “IC50 ratio 72 h (CHO / CHO/CYP1A1)” value (CHO/CYP1A1 cells) was 1 and the “IC50 ratio 72 h (CHO / CHO/CYP1B1)” value (CHO/CYP1B1 cells) was 1.25.
